## HIV-1 NL4-3 point mutations in non-coding ends: replication capacity

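Random point mutant libraries of HIV-1 NL4-3, one for each of seven fragments, were passaged in CEM T lymphocytes. The RC index is the frequency of a change after passage round 2 divided by its frequency in the plasmid library.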

Positions lie in the non-coding 5' end or the 3' LTR of the genome. Changes in the 5' U3 are not copied into viral RNA and those in the 3' R are mostly lost on reverse transcription, so a low index there need not show harm (not discussed in the paper).

A higher RC index is a better tolerated change; approximate classes are lethal up to 0.1, attenuated to 0.2, tolerated above. Input reads are the counts in the plasmid library.

- G217T (region 5' U3, input reads 109) -> 0.282
- C9487T (region 3' U3, input reads 199) -> 1.06
- G731A (region 5' U5/leader, input reads 335) -> 0.0923
- G399T (region 5' U3, input reads 186) -> 0.264
- A181G (region 5' U3, input reads 220) -> 0.0310
- T463A (region 5' R, input reads 216) -> 0.223
- A268T (region 5' U3, input reads 244) -> 0.867
- C9461A (region 3' U3, input reads 140) -> 0.458
- G389A (region 5' U3, input reads 270) -> 0.227
- G379T (region 5' U3, input reads 497) -> 0.148
- G421A (region 5' U3, input reads 243) -> 0.993
- C9521A (region 3' U3, input reads 69) -> 0.225
- G9496A (region 3' U3, input reads 296) -> 1.16
- T559A (region 5' U5/leader, input reads 187) -> 0.516
- T9458A (region 3' U3, input reads 233) -> 0.391
- T9570A (region 3' R, input reads 301) -> 0.0442
- C741T (region 5' U5/leader, input reads 407) -> 0.128
- C471A (region 5' R, input reads 53) -> 0.911
- G9435T (region 3' U3, input reads 144) -> 0.551
- T9568C (region 3' R, input reads 188) -> 0.212
- G748A (region 5' U5/leader, input reads 714) -> 0.0271
- T9416A (region 3' U3, input reads 384) -> 1.46
- G375A (region 5' U3, input reads 193) -> 0.127
- G774A (region 5' U5/leader, input reads 280) -> 0.559
- T760C (region 5' U5/leader, input reads 164) -> 0.0825
- G743T (region 5' U5/leader, input reads 312) -> 0.0496
- G174T (region 5' U3, input reads 182) -> 0.0750
- C9467G (region 3' U3, input reads 92) -> 0.404
- T9480C (region 3' U3, input reads 191) -> 0.186
- G298T (region 5' U3, input reads 366) -> 0.196
- C735A (region 5' U5/leader, input reads 94) -> 0.144
- G226A (region 5' U3, input reads 195) -> 0.297
- A173T (region 5' U3, input reads 341) -> 0.0500
- C194A (region 5' U3, input reads 65) -> 0.105
- A410G (region 5' U3, input reads 241) -> 0.153
- C273T (region 5' U3, input reads 347) -> 0.172
- G9530T (region 3' R, input reads 61) -> 1.02
- A9423G (region 3' U3, input reads 435) -> 0.827
- T9574C (region 3' R, input reads 115) -> 0.135
- C219A (region 5' U3, input reads 163) -> 0.0837
- C386T (region 5' U3, input reads 838) -> 0.263
- G9470T (region 3' U3, input reads 114) -> 0.444
- T9430A (region 3' U3, input reads 313) -> 0.799
- T762C (region 5' U5/leader, input reads 366) -> 0.0370
- T9578C (region 3' R, input reads 175) -> 0.292
- A353G (region 5' U3, input reads 295) -> 0.416
- A9494G (region 3' U3, input reads 128) -> 0.884
- A778T (region 5' U5/leader, input reads 467) -> 0.0207
- A781G (region 5' U5/leader, input reads 215) -> 0.0989
- G537A (region 5' R, input reads 188) -> 0.770
- G772T (region 5' U5/leader, input reads 55) -> 0.0351
- C275T (region 5' U3, input reads 417) -> 0.0573
- A223T (region 5' U3, input reads 340) -> 0.0502

The last 2 entries again:

C275T (region 5' U3, input reads 417): 0.0573.
A223T (region 5' U3, input reads 340): 0.0502.

An index over 1, which the authors read as above wild type, was rare (1.9% of all changes in the genome). Clones carried about five changes per kilobase, which can drag down the index of neutral changes. Nucleotide positions follow pNL4-3.

From the data files of Al-Mawsawi et al. 2014, doi:10.1186/s12977-014-0124-6.